Anti-infective test results gathered from many reports (values: NIAID ChemDB through PubChem).

Shared fields: tests in culture; organism: HIV-1; measure: inhibition

Percent inhibition refers to the dose given; in toxicity tests it is the harm to the cells.

| smiles | cells | setting | tested at | changes | method | strain or isolate | result |
|---|---|---|---|---|---|---|---|
| Cc1cn([C@H]2C[C@H](N=[N+]=[N-])[C@@H](CO)O2)c(=O)[nH]c1=O | HUT/CCR5 + HUT | 7 d | 0.5 µM |  | p24 | BaL | 98% |
| CC(C)c1nc(CN(C)C(=O)N[C@H](C(=O)N[C@@H](Cc2ccccc2)C[C@H](O)[C@H](Cc2ccccc2)NC(=O)OCc2cncs2)C(C)C)cs1 | H9 |  | 5 µM |  | p24 | A01 Recombinant wild type | 93% |
| O=C1N(Cc2ccc(CO)cc2)[C@H](Cc2ccccc2)[C@H](O)[C@@H](O)[C@@H](Cc2ccccc2)N1Cc1ccc(CO)cc1 | PBMC |  | 0.18 µM |  | p24 | 1 clinical isolate | 90% |
| CCN1c2ncccc2-c2nccn2-c2ccc(N(C)C)nc21 | C8166 | 7 d | 0.1 µM |  | syncytia |  | 100% |
| C[C@@H]1[C@H](O)[C@@H](C)/C=C/C=C/CC/C=C/C=C/C=C/C=C/C(O[C@H]2O[C@H](C)[C@@H](O)[C@H](N)[C@@H]2O)CC2O[C@](O)(CC(O)C(O)CCC(O)CC(O)CC(O)CC(=O)O[C@H]1C)CC(O)C2C(=O)O | H9 |  | 10 µg/mL |  | RT activity |  | 95% |
| O=c1[nH]cnc2c1ncn2[C@H]1CC[C@@H](CO)O1 | MT-4 |  | 7 µM |  | cytopathic effect / MTT | IIIB | 70% |
| CC(C)[C@H](NS(=O)(=O)N(C)Cc1ccccn1)C(=O)N[C@@H](Cc1ccccc1)[C@H](O)[C@H](O)[C@H](Cc1ccccc1)NC(=O)[C@@H](NS(=O)(=O)N(C)Cc1ccccn1)C(C)C | MT-4 |  | 100 µM |  | cytopathic effect | IIIB | 0% |
| C=CC(C)(C)c1cc(/C=C/C(=O)c2ccc(O)cc2)c(OC)cc1O | MOLT-4/OKM-1(HIV-1) + MOLT-4 |  | 20 µg/mL |  | syncytia |  | 100% |
| O=C(O)P(=O)(O)O | PBL | 14 d | 256 µM |  | RT activity | IIIB | 100% |
| CC(C)(CO)[C@@H](O)C(=O)NCCCC(=O)O | MT-4 |  | 100 µg/mL |  |  | LAV | 80% |
| O=C(O)c1cc(SSc2ccc([N+](=O)[O-])c(C(=O)O)c2)ccc1[N+](=O)[O-] | H9 |  | 2500 µM |  | p24 | IIIB | 99.9% |
| O=S1CCC(N=C=S)CC1 | CEM-GFP |  | 1 µM |  | MTT | NL4-3 | 48.56% |
| O=C(O)c1cn2c3c(c(N4CCN(c5ccccn5)CC4)c(F)cc3c1=O)OCC2CF | MT-4 |  | 10 µg/mL |  | cytopathic effect / XTT | IIIB | 90% |
| COc1cc(-c2c3nc(c(-c4cc(OC)c(OC)c(OC)c4)c4ccc([n-]4)c(-c4cc(OC)c(OC)c(OC)c4)c4ccc([n-]4)c(-c4cc(OC)c(OC)c(OC)c4)c4nc2C=C4)C=C3)cc(OC)c1OC.[O]=[V+2] | HUT/CCR5 + HUT | 7 d | 5 µM |  | p24 | BaL | 73% |
| Cn1c(=O)c2c(ncn2C)n(C)c1=O | MT-4 |  | 100 µg/mL |  |  | LAV | 0% |
| COC(=O)C(Cc1c[nH]c2ccc(O)cc12)N=C=S | CEM-GFP |  | 1 µM |  | MTT | NL4-3 | 61.81% |
| CN1CCN(CCCN2c3ccccc3Sc3ccc(Cl)cc32)CC1 | MT-4 |  | 10 µg/mL |  |  | LAV | 99.6% |
| Cc1cn([C@H]2C[C@H](N=[N+]=[N-])[C@@H](CO)O2)c(=O)[nH]c1=O | U1(HIV-1 (LAV)) + U1 |  | 1 µM |  | plaque count / syncytia | LAV | 13% |
| Nc1ccn([C@H]2CC[C@@H](CO)O2)c(=O)n1 | CEM |  | 0.01 µM |  | virus yield | LAV-1 | >100% |
| O=C1Nc2ccc(Cl)cc2C(c2ccccc2Cl)=NC1O | MT-4 |  | 1 µg/mL |  |  | LAV | 0% |
| CCc1c(C)[nH]c(=O)c([N+](=O)[O-])c1Sc1cc(C)cc(C)c1 |  |  | 1 µM |  | RT activity | Isolated virion | 99% |
| COC(=O)C(Cc1c[nH]c2ccccc12)N=C=S | CEM-GFP |  | 56.33 µg/mL |  | MTT | NL4-3 | 1% |
| Nc1cccc(CN2C(=O)N(Cc3cccc(N)c3)[C@H](Cc3ccccc3)[C@H](O)[C@@H](O)[C@H]2Cc2ccccc2)c1 | MT-2 |  | 1.26 µM | PR-D60E I84V | virus yield | THAI (PR-D60E I84V) | 90% |
| O=C(O)c1cn(C2CC2)c2cc(N3CCNCC3)c(F)cc2c1=O | MT-4 |  | 50 µg/mL |  | cytopathic effect / XTT | IIIB | 0% |
| COC(=O)[C@H]1[C@H]2C[C@@H]3c4[nH]c5cc(OC)ccc5c4CCN3C[C@H]2C[C@@H](OC(=O)/C=C/c2cc(OC)c(OC)c(OC)c2)[C@@H]1OC | MT-4 |  | 100 µg/mL |  |  | LAV | 0% |
| O=S(=O)(O)c1cc(N=C=S)ccc1CCc1ccc(N=C=S)cc1S(=O)(=O)O | JM |  | 100 µg/mL |  | syncytia | GB8 | 100% |
| CCNCC(O)c1cccc(O)c1 | MT-4 |  | 100 µg/mL |  |  | LAV | 0% |
| [B-]P(=O)([O-])CC[C@H]1O[C@@H](n2cc(C)c(=O)[nH]c2=O)C[C@@H]1N=[N+]=[N-] | CEM |  | 400 µM |  | syncytia | IIIB | 0% |
| COC(=O)C(Cc1ccccc1)N=C=S | CEM-GFP |  | 0.5 µg/mL |  | MTT | NL4-3 | 66.83% |
| CN1C(=O)CN=C(c2ccccc2)c2cc(Cl)ccc21 | MT-4 |  | 100 µg/mL |  |  | LAV | 37% |
| Cc1cn([C@H]2C[C@H](N=[N+]=[N-])[C@@H](CO)O2)c(=O)[nH]c1=O | H9 |  | 50 µg/mL |  | p24 / ELISA |  | 90% |
| CCN1c2ncccc2-c2ncc(C)n2-c2ccc(OC)nc21 | C8166 | 7 d | 0.01 µM |  | syncytia |  | 100% |
| Cc1cn([C@H]2C[C@H](N=[N+]=[N-])[C@@H](/C=C/P(=O)(O)Oc3ccccc3)O2)c(=O)[nH]c1=O | MT-4 |  | 200 µM |  | cytopathic effect / propidium iodide | IIIB | 0% |
| C[C@](N)(Cc1ccc(O)c(O)c1)C(=O)O | MT-4 |  | 1 µg/mL |  |  | LAV | 0% |
| COc1c(CC=C(C)C)c(O)cc2oc(=O)c(-c3ccc(O)cc3O)cc12 | MOLT-4/OKM-1(HIV-1) + MOLT-4 |  | 20 µg/mL |  | syncytia |  | 100% |
| CC(C)Nc1cccnc1N1CCN(C(=O)c2ccc(-c3ccc(NS(C)(=O)=O)cc3)[nH]2)CC1 | MT-4 |  | 0.8 µM |  | p24 | IIIB | 90% |

Repeating the first 2 entries:

smiles,cells,setting,tested at,changes,method,strain or isolate,result
Cc1cn([C@H]2C[C@H](N=[N+]=[N-])[C@@H](CO)O2)c(=O)[nH]c1=O,HUT/CCR5 + HUT,7 d,0.5 µM,,p24,BaL,98%
CC(C)c1nc(CN(C)C(=O)N[C@H](C(=O)N[C@@H](Cc2ccccc2)C[C@H](O)[C@H](Cc2ccccc2)NC(=O)OCc2cncs2)C(C)C)cs1,H9,,5 µM,,p24,A01 Recombinant wild type,93%

Conditions beyond the fields shown may differ between rows. An empty or dashed field is not shown.